The structures appear in SMILES notation. The list shows a part of the results, in another mix than the full data. Results filed as inconclusive are left out. Active and inactive are the calls of the source. No stated cut-off is given here; in the data, active means activity change below about -60%; inconclusive means no clear call, values can overlap the other calls; inactive means above about -39%.
On the % scale 0 is the no-effect control and ±100 the full control effect.

This assay is described as follows: qHTS Assay for inhibitors of the human cytomegalovirus (HCMV). The settings on record: HFF cells, HCMV-luciferase reporter, 72 h; at 57.5 µM; active compounds read low. The text has this:
NCGC Assay Overview: Infection with human cytomegalovirus (HCMV) continues to pose significant threats for pregnant women and immunocompromised hosts. HCMV causes serious morbidity and mortality in transplant recipients, and congenital HCMV is the leading infectious cause of mental retardation and deafness in children. In the 1990s, the annual costs associated with the disease burden of congenital CMV were estimated at around $2 billion. A HCMV vaccine is not available yet and HCMV therapies result in intolerable side effects and emergence of drug resistant viruses. […] Towards this goal we have developed and characterized a luciferase HCMV reporter that was initially used in 96 well plates and then optimized to 1536-well plates for utilization in screening of the MLSMR collection, the NGCG diversity collection and the NCGC Pharmaceutical Collection of approved and investigational drugs.
NCGC Assay Protocol Summary:
This is a cell-based assay for HCMV inhibition in HFFs cells. The screening used 2 compound doses and the HCMV-luciferase at MOI of 1 PFU/cell. Cells were treated and infected with HCMV. At 72 h post infection cell lysates were collected and luciferase activity was determined using the Glomax-Multi + Detection System (Promega, Madison, WI). Data were normalized to the controls for basal activity (buffer only) and known HCMV inhibitors Salinmoycin. […]
(In qHTS, concentration-response curves come from the screen itself.)
For the molecule `Cc1ccc(C)c(NP(C)(=O)Oc2ccccc2)c1` (stereo unspecified), the activity change, negative = inhibition is inactive: 11.4%.

The values are drawn from PubChem BioAssay AID1259415 (National Center for Advancing Translational Sciences (NCATS), 2018).
